Molecules are shown by their SMILES.

These results are taken from ChEMBL document CHEMBL1268855 (J Nat Prod, 2010).

In experiment [1] the target is T1, Neuraminidase (Influenza A virus, UniProt B4URF0). Put plainly: Inhibition of Influenza A virus (A/chicken/Korea/01310/2001 (H9N2)) neuraminidase after 30 mins by spectrofluorimetric analysis.
Experiment [2] has as its target T1, Neuraminidase. Put plainly: Inhibition of Influenza A virus (A/Sw/Kor/CAH1/04 (H1N1) KCTC 11165BP neuraminidase after 30 mins by spectrofluorimetric analysis.

In the case of `COc1c(C)c(O)c(C)c(O)c1C(=O)/C=C/c1ccc(O)cc1`, the IC50 was 18.6 µM at Neuraminidase [1] and 20.4 µM at Neuraminidase [2].

`COc1c(C)c(O)c(C)c(O)c1C(=O)/C=C/c1ccccc1`: the IC50 at Neuraminidase [1] is 21.7 µM; against Neuraminidase [2], 32.5 µM.

As for `COc1cc(O)c(C)c(O)c1C(=O)/C=C/c1ccccc1`, the IC50 at Neuraminidase [1] was 66.5 µM; on Neuraminidase [2], 85.7 µM.

On to `COc1c(C)c(O)c(C)c(O)c1C(=O)/C=C/c1ccccc1O`, for which the IC50 at Neuraminidase [1] came to 23.1 µM; at Neuraminidase [2], 28.1 µM.
